Pooled drug test results. Numbers come from NIAID ChemDB, via PubChem.

Common to all: tests in culture; agent: HIV-1; measure: fold resistance

Fold resistance: result on the changed form divided by that on wild type. Neighbouring rows are from separate reports. An empty or dashed field is not shown.

| SMILES | strain | cell line | mutations | value |
|---|---|---|---|---|
| CC(C)(C)C(=O)c1sc(C(=O)NCc2ccccc2)c(O)c1O |  |  | INTG-T66I N155S | 25 |
| Nc1ncnc2c1ncn2CCOCP(=O)(O)O | K65R |  | RT-K65R | 10 |
| O=C1O[C@H]2[C@@H]3OC(=O)c4cc(O)c(O)c(O)c4-c4c(cc(O)c(O)c4O)C(=O)OC[C@H]2O[C@@H](OC(=O)c2cc(O)c(O)c(O)c2)[C@@H]3OC(=O)c2cc(O)c(O)c3c2[C@@H]2C1=CC(=O)[C@](O)(O3)C2(O)O | NNRTI-resistant (RT L100I) ARP1016 | MAGI | RT-L100I | 2.19 |
| CC(C)=CCN1Cc2cc(Cl)cc3[nH]c(=S)n(c23)C[C@@H]1C | MVP5180 (RT A98G K103R) | PBMC | RT-A98G K103R | >312.5 |
| CC(=O)Oc1ccc(/C=C/C(=O)O[C@H](C(=O)O)[C@H](OC(=O)/C=C/c2ccc(OC(C)=O)c(OC(C)=O)c2)C(=O)O)cc1OC(C)=O | NL4-3 | MT-4 | Dextran sulfate-resistant | >11.9 |
| COc1ccc(S(=O)(=O)N(CC(C)C)C[C@@H](O)[C@H](Cc2ccccc2)NC(=O)O[C@H]2CO[C@H]3OCC(F)(F)[C@H]32)cc1 | NL4-3 | MT-4 | A28S L33F V82I GRL04810-resistant | 66 |
| Cc1cn([C@H]2C[C@H](N=[N+]=[N-])[C@@H](CO)O2)c(=O)[nH]c1=O |  |  | INTG-S153 N155S | 1 |
| Nc1nc2c(ncn2[C@H]2CO[C@@H](CO)O2)c(=O)[nH]1 |  |  | RT-S68G Q151M T215Y | ~4 |
| Cc1cn([C@H]2C[C@H](N=[N+]=[N-])[C@@H](CO)O2)c(=O)[nH]c1=O | BCF07 | PBMC | RT-A98G V106I Y181C | 1 |
| Nc1nc2c(ncn2[C@H]2CO[C@@H](CO)O2)c(=O)[nH]1 | RT-103N 108I |  | RT-K103N V108I | 0.1 |
| CC(C)(C)C(=O)c1sc(C(=O)NCCc2ccccc2)c(O)c1O |  |  | INTG-T66I | 0.25 |
| CC(C)(C)OC(=O)N[C@@H](Cc1ccccc1)[C@H](O)CNC[C@@H](O)[C@H](Cc1ccc(OCC(=O)N2CCOCC2)cc1)NC(=O)OC(C)(C)C | RF | MT-2 | PR-G48V A71T V82A | 9.3 |
| CC(C)CN(C[C@@H](O)[C@H](Cc1ccccc1)NC(=O)O[C@H]1CCOC1)S(=O)(=O)c1ccc(N)cc1 | NL4-3 | MT-4 | M46I I50V N38K M36I GRL05010-resistant | >13 |
| Cc1cn([C@H]2C=C[C@@H](CO)O2)c(=O)[nH]c1=O | RT-65R 116Y 151M |  | RT-K65R F116Y Q151M | 30 |
| Nc1ccn([C@H]2CC[C@@H](CO)O2)c(=O)n1 | BCF03 | PBMC | RT-A98G Y181C | 0.8 |
| CC(C)=CCN1c2cc(Cl)cc3[nH]c(=S)n(c23)C[C@@H]1C |  | MT-4 | RT-K70R K103N | 15 |
| CC(C)CN(C[C@@H](O)[C@H](Cc1ccccc1)NC(=O)O[C@H]1CO[C@H]2OCC(F)(F)[C@H]21)S(=O)(=O)c1ccc(N)cc1 | NL4-3 | MT-4 | L23I E34Q K43I M46I I50L G51A L63P A71V V82A T91A ATV resistant | 12 |

A second listing of 2 rows from above:

SMILES | strain | cell line | mutations | value
CC(=O)Oc1ccc(/C=C/C(=O)O[C@H](C(=O)O)[C@H](OC(=O)/C=C/c2ccc(OC(C)=O)c(OC(C)=O)c2)C(=O)O)cc1OC(C)=O | NL4-3 | MT-4 | Dextran sulfate-resistant | >11.9
Nc1ncnc2c1ncn2CCOCP(=O)(O)O | K65R |  | RT-K65R | 10